Measured values from several laboratories, pooled; numbers as filed in NIAID ChemDB.

Common to all: tests on isolated targets

Blank or dashed fields: not listed here.

compound,protein,endpoint,species,changes,tested at,read by,strain or isolate,result
CN(C)CCNC(=O)c1cccc(-c2cncc(Nc3ccc(C#N)c(Cl)c3)n2)c1,UL97 kinase,IC50,Cytomegalovirus,,,,,<1 µM
CCCCCCN(CCCCCC)C(=O)O[C@@H]([C@@H]1OC(C(=O)O)=C[C@H](N)[C@H]1NC(=O)O)[C@H](C)CO,Sialidase,IC50,Influenza A virus,,,,H3N2 AICHI,76 µM
CO[C@H](C(=O)NO)[C@@H](CC(C)C)C(=O)N[C@H](C(=O)O)c1ccccc1,PfM1AAP,Ki,Plasmodium falciparum,,,fluorescence,,2.4 µM
CC(=O)c1ccc(N2CCN(c3cncc(-c4cccc5ccccc45)n3)CC2)cc1,UL97 kinase,IC50,Cytomegalovirus,,,,,<100 µM
O=Cc1cnn2c(C3CCCCC3)c(-c3ccc(OCc4ccccc4)cc3)cnc12,RNA-dependent RNA polymerase,IC50,Hepatitis C virus,,,,,>10 µM
c1ccc2c(-c3cncc(N4CCN(c5ccncc5)CC4)n3)csc2c1,UL97 kinase,inhibition,Cytomegalovirus,,1 µM,,,<50%
CCCCCCCCCCCCC/C=C/[C@@H](O)[C@H](CO[C@@H]1O[C@H](CO)[C@H](O)[C@H](OS(=O)(=O)O)[C@H]1O)NC(=O)CCCCCCCCCCCCCCCCCCCCCCC,Sialidase,inhibition,Influenza A virus,,200 µM,,Influenza A/Victoria/2/82 (H3N2),98.1%
CC(C)C(=O)N[C@H]1C([C@H](C)[C@@H](O)CO)OC(C(=O)O)=C[C@@H]1NS(=O)(=O)C(Cl)Cl,Neuraminidase,IC50,Parainfluenza virus,,,,TYPE 1,1.2 µM
CCCCCCCNC(=O)O[C@@H]([C@@H]1OC(C(=O)O)=C[C@H](N=C(N)N)[C@H]1NC(=O)O)[C@H](C)CO,Sialidase,IC50,Influenza B virus,,,,Victoria,0.0033 µM
CCN(CC)C(=O)[C@@H]1C=C(C(=O)O)OC[C@H]1NC(C)=O,Influenza virus sialidases,IC50,Influenza B virus,,,fluorescence,Victoria,>100 µM
CCCCCCCNC(=O)O[C@@H]([C@@H]1OC(C(=O)O)=C[C@H](N)[C@H]1NC(=O)O)[C@H](C)CO,Sialidase,IC50,Influenza B virus,,,,Victoria,1.95 µM
O=C(OC1OC2COC(=O)c3cc(Oc4c(C(=O)OC5C(O)OC6COC(=O)c7cc(O)c(O)c(O)c7-c7c(cc(O)c(O)c7O)C(=O)OC6C5OC(=O)c5cc(O)c(O)c(O)c5)cc(O)c(O)c4O)c(O)c(O)c3-c3c(cc(O)c(O)c3O)C(=O)OC2C(OC(=O)c2cc(O)c(O)c(O)c2)C1O)c1cc(O)c(O)c(O)c1,DNA polymerase,inhibition,Epstein-Barr virus,,120 µg/mL,,,81%
FC(F)(F)Oc1cccc(COc2cccc(-c3cnc4c(-c5nn[nH]n5)cnn4c3C3CCCCC3)c2)c1,RNA-dependent RNA polymerase,IC50,Hepatitis C virus,,,,,1–10 µM
CC(=O)c1ccc(N2CCN(c3cncc(-c4ccccc4Oc4ccccc4)n3)CC2)cc1,UL97 kinase,IC50,Cytomegalovirus,,,,,<100 µM
O=C(c1ccc([N+](=O)[O-])o1)N1CCN(c2nc3c(Cl)cccc3s2)CC1,Thioredoxin reductase,IC50,Plasmodium vivax,,,,,5.2 µM
O=C(O)c1cc2nc(-c3ccccc3)cc(-c3ccccc3Cl)n2n1,RNA-dependent RNA polymerase,IC50,Hepatitis C virus,,,,,>10 µM
O=C(c1ccc([N+](=O)[O-])o1)N1CCN(c2nc3c(F)cc(F)cc3s2)CC1,Thioredoxin reductase,IC50,Plasmodium berghei,,,,,<4 µM
N[C@@H]1CN(c2c(F)cc3c(=O)c(C(=O)O)cn([C@@H]4C[C@@H]4F)c3c2Cl)CC12CC2,Topoisomerase IV,IC50,Streptococcus pneumoniae,,,,J24 (quinolone- penicillin-sensitive),1.88 µg/mL
O=C(Nc1cc(-c2ccc(C(F)(F)F)cc2)nc2cc(C(=O)O)nn12)c1ccc(Cl)cc1,RNA-dependent RNA polymerase,IC50,Hepatitis C virus,,,,,>10 µM
CCN(CC)C(=O)[C@@H]1C=C(C(=O)O)CC[C@H]1NC(C)=O,Influenza virus sialidases,IC50,Influenza A virus,,,fluorescence,AICHI N2,0.017 µM
FC(F)(F)c1ccc(Cl)c(COc2ccc(-c3cnc4c(-c5nn[nH]n5)cnn4c3C3CCCCC3)cc2)c1,RNA-dependent RNA polymerase,IC50,Hepatitis C virus,,,,,1–10 µM
NC(=O)c1ccc(-c2cncc(N3CCN(c4cccc(Cl)c4)CC3)n2)cc1,UL97 kinase,IC50,Cytomegalovirus,,,,,<10 µM
Clc1cc(CN2CCCNCCNCCCNCC2)cc(Cl)n1,CXCR4,fold resistance,,CXCR4-H113A,,,,4.8
Oc1cc(O)c2c(c1)O[C@H](c1cc(O)c(O)c(O)c1)[C@@H](O)C2,DNA polymerase,inhibition,Epstein-Barr virus,,12.5 µg/mL,,,88.1%
Fc1ccc(-c2cncc(N3CCN(c4ccc(F)cc4)CC3)n2)cc1,UL97 kinase,IC50,Cytomegalovirus,,,,,<100 µM
CC1(C)S[C@@H]2[C@H](NC(=O)Cc3ccccc3)C(=O)N2[C@H]1C(=O)O,Topoisomerase IV,IC50,Streptococcus pneumoniae,,,,J24 (quinolone- penicillin-sensitive),>200 µg/mL
Cc1ccc(Cl)c2nc(N3CCN(C(=O)c4ccc([N+](=O)[O-])o4)CC3)sc12,Thioredoxin reductase,IC50,Plasmodium falciparum,,,,,5.2 µM
O=C(O)c1cc2nc(-c3ccc(OCc4ccccc4)cc3)cc(-c3ccccc3)n2n1,RNA-dependent RNA polymerase,IC50,Hepatitis C virus,,,,,>10 µM
C[C@H](CO)[C@@H](OC(N)=O)[C@@H]1OC(C(=O)O)=C[C@H](N)[C@H]1NC(=O)O,Sialidase,IC50,Influenza A virus,,,,H3N2 AICHI,0.32 µM
O=C(O)c1cc2nc(-c3ccc(C(F)(F)F)cc3)cc(-c3ccc(OCc4ccccc4)cc3)n2n1,RNA-dependent RNA polymerase,IC50,Hepatitis C virus,,,,,1–10 µM
C[C@H](CO)[C@@H](OC(=O)N1CCN(C(=O)OCc2ccccc2)CC1)[C@@H]1OC(C(=O)O)=C[C@H](N=C(N)N)[C@H]1NC(=O)O,Sialidase,IC50,Influenza A virus,,,,H3N2 AICHI,0.014 µM
Cc1cccc(-c2cncc(N3CCN(c4ccc(Cl)cc4)CC3)n2)c1,UL97 kinase,IC50,Cytomegalovirus,,,,,<100 µM
CCCC[C@H](NC(=O)[C@H](C)NC(=O)[C@H](CCC(=O)O)NC[C@H](Cc1ccccc1)NC(=O)[C@H](CC(C)C)NC(=O)[C@@H](NC(=O)[C@@H](N)CCCN=C(N)N)C(C)C)C(N)=O,Protease,IC50,HIV,PR-N88D,,HPLC,,>0.075 µM

Repeating the first 3 entries:

| compound | protein | endpoint | species | changes | tested at | read by | strain or isolate | result |
|---|---|---|---|---|---|---|---|---|
| CN(C)CCNC(=O)c1cccc(-c2cncc(Nc3ccc(C#N)c(Cl)c3)n2)c1 | UL97 kinase | IC50 | Cytomegalovirus |  |  |  |  | <1 µM |
| CCCCCCN(CCCCCC)C(=O)O[C@@H]([C@@H]1OC(C(=O)O)=C[C@H](N)[C@H]1NC(=O)O)[C@H](C)CO | Sialidase | IC50 | Influenza A virus |  |  |  | H3N2 AICHI | 76 µM |
| CO[C@H](C(=O)NO)[C@@H](CC(C)C)C(=O)N[C@H](C(=O)O)c1ccccc1 | PfM1AAP | Ki | Plasmodium falciparum |  |  | fluorescence |  | 2.4 µM |

Inhibition is in % at the dose shown (toxicity tests: loss of growth or viability). Lines come from different laboratories, so protocols vary. Fold resistance has wild type as its base. a–b is a range or a potency band. ICn is the concentration giving n% inhibition.